# PSTVd stem 26 mutant pool in Nicotiana benthamiana

The pool varies stem 26 of the PSTVd intermediate strain in the pattern AGGGUNNCNN; wild type is AGGGUACCCU (upper and lower strand joined, each 5' to 3', the first 5 letters being the upper strand).

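Three N. benthamiana plants were inoculated with the whole mutant pool. Progeny were sequenced from the inoculated region (day 5), the margin of the inoculated leaf (day 10) and systemic leaves (day 12).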

Numbers give reads per thousand; 0 = not seen among the reads, higher = more abundant. Each value is the mean of three plants. "Pool" is the share in the plasmid pool used as inoculum, on the same scale. The inoculated region was read from the minus strand, the other sites from the plus strand. IR is the inoculated region, LM the leaf margin, Sys the systemic leaves. Samples held 23,251 to 70,159 reads, so the smallest values rest on one or two reads. Wild type was 44.9 per thousand in the pool and the most common sequence in every sample (inoculated region 297, 323, 447; leaf margin 793, 829, 846; systemic leaves 974, 853, 877). The authors trace changes outside the varied positions to PCR and sequencing errors or to mutation in the plant; presence does not show that a variant is infectious alone.

* AGGGUUACAG (pool 5.64): IR 2.51; LM 0; Sys 0.0103
* AGGGUAUCGC (pool 2.80): IR 2.06; LM 0.565; Sys 0
* AGGGUCUCGC (pool 4.03): IR 4.57; LM 0.591; Sys 0.223
* AGGGUCGCUA (pool 3.01): IR 0.699; LM 0.0148; Sys 0
* AGGGUUUCCU (pool 4.33): IR 1.89; LM 0.00742; Sys 0.0143
* AGGGUCACUC (pool 3.13): IR 2.25; LM 0.688; Sys 0.275
* AGGGUUACGG (pool 4.14): IR 2.12; LM 0.0186; Sys 0.143
* AGGGUAACAA (pool 2.91): IR 0.968; LM 0.00742; Sys 0.00475
* AGGGUGGCCC (pool 2.78): IR 1.99; LM 0.654; Sys 0
* AGGGUCUCCG (pool 5.64): IR 2.29; LM 0.0173; Sys 0.0110
* AGGGUUAUCG (pool 0.0329): IR 0.0245; LM 0; Sys 0
* AGGGUGGCUA (pool 2.80): IR 2.05; LM 0.800; Sys 0
* AGGGUUCCCG (pool 3.37): IR 0.909; LM 0; Sys 0
* AGGGUGGCGC (pool 3.75): IR 2.55; LM 1.90; Sys 0.00551
* AGGGUGCCGU (pool 3.24): IR 1.08; LM 0.00992; Sys 0
* AGGGUCUCGG (pool 4.64): IR 1.41; LM 0.00992; Sys 0.0436
* AGGGUUUCUU (pool 9.79): IR 4.14; LM 2.33; Sys 0.353
* AGGGUUCCAU (pool 2.78): IR 0.991; LM 0.0148; Sys 0
* AGGGUAGCGA (pool 3.60): IR 1.43; LM 0.00871; Sys 0.0110
* AGGGUUACUG (pool 7.25): IR 3.00; LM 0.0174; Sys 0.442
* AGGGUUUCUC (pool 4.72): IR 3.61; LM 1.32; Sys 0.776
* AGGGUUCCAC (pool 3.17): IR 1.55; LM 0.00742; Sys 0
* AGGGUUCCUG (pool 3.09): IR 1.06; LM 0.365; Sys 0

The measurements come from Wu et al. 2024 (doi:10.1371/journal.ppat.1012142).